Compound potency records, mixed from different reports. Data source: NIAID ChemDB in PubChem.

Shared fields: growth or infection tests; agent: Mycobacterium tuberculosis

Inhibition is in % at the dose shown (toxicity tests: loss of growth or viability). Lines come from different laboratories, so protocols vary. MIC bound: limit read from a one-dose screen. A number after MIC or MFC names an inhibition level or a share of isolates. ECn is the concentration giving n% inhibition of infection, replication or growth. a–b is a range or a potency band. An empty or dashed field is not shown.

smiles,strain or isolate,changes,method,measure,dose,result
CCOC(=O)c1ccccc1NC(N)=S,A67,,,MIC,,500 µM
COc1nc2ccc(Br)cc2cc1C(c1ccccc1)C(O)(CCN1C=CN(C)C=C1)c1cccc2ccccc12,H37Rv,,,MIC90,,48.5 µg/mL
O=C(N/N=C/c1ccccc1O)c1cccc2ccccc12,H37Rv,,BACTEC,MIC bound,,>12.5 µg/mL
CCc1nc(NCc2ccccc2)c2cc(C)sc2n1,Erdman,,resazurin,EC50,,11 µM
CC1(C)O[C@H]2OC([C@H](CCO)NCCCCCCCCCCCCN[C@@H](CCO)C3O[C@@H]4OC(C)(C)O[C@@H]4[C@H]3OCc3ccccc3)[C@H](OCc3ccccc3)[C@H]2O1,H37Rv,,,MIC,,6.25 µg/mL
COc1cc2c(cc1OC)C1CC(=O)C(CCCCCCC3CN4CCc5cc(OC)c(OC)cc5C4CC3=O)CN1CC2,H37Rv,,BACTEC,inhibition,12.5 µg/mL,95%
CC1(C)C[C@H]2[C@@H](C1)[C@@H](C(CCO)NCCCCCCCNC(CCO)[C@H]1O[C@@H]3CC(C)(C)C[C@@H]3[C@H]3CC(C)(C)C[C@H]31)O[C@@H]1CC(C)(C)C[C@H]21,H37Rv,,,MIC,,>25 µg/mL
COc1nc2ccc(-c3ccc(CO)o3)cc2cc1C(c1ccccc1)C(O)(CCN(C)C)c1cccc2ccccc12,H37Rv,,,MIC90,,9.08 µg/mL
C[C@H]1OC(=O)N(CCCC=C2SCCCS2)C1=O,H37Rv,,BACTEC,inhibition,12.5 µg/mL,0%
C=C(C)[C@@H]1CC[C@]2(C(=O)O)CC[C@]3(C)C(CCC4[C@@]5(C)C(C=O)=CC(C)(C)[C@@H]5CC[C@]43C)C12,,,,MIC,,100 µg/mL
Cc1cn2c(C(=O)NCc3ccc(N4CCOCC4)c(F)c3)c(C)nc2s1,H37Rv,,luminescence,MIC,,>100 µM
COc1nc2ccc(Br)cc2cc1C(c1ccccc1)C(O)(CCN1CCOCC1)c1ccccc1,H37Rv,,,MIC90,,54.75 µg/mL
CC1(C)CC(NC(=O)c2ccccc2)C(=O)O1,H37Rv,,BACTEC,MIC bound,,>12.5 µg/mL
CCCCCNNC(=O)c1ccncc1,H37Rv,,,MIC,,5 µg/mL
CC1(C)O[C@H]2OC([C@H](CCO)NCCCCCCCCCN[C@@H](CCO)C3O[C@@H]4OC(C)(C)O[C@@H]4[C@H]3OCc3ccccc3)[C@H](OCc3ccccc3)[C@H]2O1,H37Rv,,,MIC,,6.25 µg/mL
CCc1nc(NCCCc2ccccc2)c2cc(C)sc2n1,Erdman,,resazurin,EC50,,0.14 µM
CC1=CC(=O)c2c(ccc(-c3ccc4c(c3O)C(=O)C=C(C)C4=O)c2O)C1=O,CIBIN 99 (MDR-MTB),,resazurin,MIC,,>100 µg/mL
O=Cc1cc2c(Cl)nccc2o1,H37Rv,,BACTEC,inhibition,12.5 µg/mL,57%
CCOC(=O)C[C@H](NCCCCCCCN[C@H](CC(=O)OCC)[C@H]1O[C@@H]2CC(C)(C)C[C@@H]2[C@H]2CC(C)(C)C[C@H]21)[C@H]1O[C@@H]2CC(C)(C)C[C@@H]2[C@H]2CC(C)(C)C[C@H]21,H37Rv,,,MIC,,25 µg/mL
C[C@@H](O)[C@H]1C(=O)N2C(C(=O)O)=C([C@H]3CCCO3)S[C@H]12,H37Rv,,resazurin,MBC,,4 µg/mL
CC1=C2C3B(OCCOC3C=C1)O[C@@H]2CN,H37Rv,,resazurin / fluorescence,EC50,,0.2 µM
CN(C)c1ccc2nc3ccc(=O)cc-3sc2c1,H37Rv,,BACTEC,MIC bound,,≤12.5 µg/mL
Cc1cn2c(C(=O)NCc3ccc(N4CCC5(CC4)OCC(C)CO5)cc3)c(C)nc2s1,H37Rv,,resazurin / fluorescence,MIC,,0.621 µM
O=C(/N=N\C(=O)OCc1ccccc1)OCc1ccccc1,H37Rv,,BACTEC,MIC bound,,>12.5 µg/mL
CC1=C(C2=C(C)C(=O)c3cccc(O)c3C2=O)C(=O)c2c(O)cccc2C1=O,H37Rv (S-MTB),,resazurin,MIC,,3.13 µg/mL
NC[C@H]1O[C@H](O[C@H]2[C@H](O)[C@@H](O[C@H]3O[C@H](CO)[C@@H](O)[C@H](N)[C@H]3O)[C@H](N)C[C@@H]2N)[C@H](O)[C@@H](O)[C@@H]1O,,,,MIC,,5 µg/mL
CC[C@H]1OC(=O)[C@H](C)[C@@H](OC2C[C@@](C)(O)C(O)[C@H](C)O2)[C@H](C)[C@@H](OC2OC(C)C[C@H](N(C)C)C2O)[C@](C)(OC2CC(N(C)C)C(O)C(C)O2)C[C@@H](C)C(=O)[C@H](C)[C@@H](O)[C@]1(C)O,H37Rv,,resazurin,MBC,,>128 µg/mL
C/C=C/C1=CC(=O)C(O)C1O,H37Rv,,BACTEC,MIC bound,,>12.5 µg/mL
Cc1cn2c(C(=O)NCc3ccc(N4CCOCC4)cc3)c(C)nc2s1,H37Rv,,luminescence,MIC,,57 µM
C=CC1=C(C(=O)O)N2C(=O)C(NC(=O)/C(=N\OCC(=O)O)c3csc(N)n3)C2SC1,H37Rv,,resazurin,MIC,,32 µg/mL
NC(=S)N/N=C/c1cccc([N+](=O)[O-])c1O,A67,,,MIC,,500 µM
NC(=S)N/N=C\c1ccccc1,H37Ra,,,MIC,,0.1 µg/mL
CCOC(=O)C[C@H](NCCCCCCCCCN[C@@H](CC(=O)OCC)C1O[C@@H]2OC(C)(C)O[C@@H]2[C@H]1OCc1ccccc1)C1O[C@@H]2OC(C)(C)O[C@@H]2[C@H]1OCc1ccccc1,H37Rv,,,MIC,,6.25 µg/mL
CCc1nc(NC(C(=O)O)C(C)C)c2cc(C)sc2n1,Erdman,,resazurin,EC50,,2.7 µM
NC(=S)Nc1ccc(Cl)cc1,A67,,,MIC,,250 µM
CO[C@H]1/C=C/O[C@@]2(C)Oc3c(C)c(O)c4c(O)c(c(/C=N/N5CCN(C)CC5)c(O)c4c3C2=O)NC(=O)/C(C)=C\C=C\[C@H](C)[C@H](O)[C@@H](C)[C@@H](O)[C@@H](C)[C@H](OC(C)=O)[C@@H]1C,CIBIN 99 (MDR-MTB),,resazurin,MIC,,100 µg/mL
O=C1OCc2c1cc1ccc(O)c(OC3OC(CO)C(O)C(O)C3O)c1c2-c1ccc2c(c1)OCO2,H37Rv,,BACTEC,inhibition,12.5 µg/mL,-2%
CCn1cc(C(=O)O)c(=O)c2cc(F)c(N3CCN(C/C(=N/OC)c4ccco4)CC3)cc21,H37Rv,,,inhibition,6.25 µg/mL,23%
CCNNC(=O)c1ccncc1,H37Rv,,,MIC,,40 µg/mL
CO/N=C(/CN1CCN(c2cc3c(cc2F)c(=O)c(C(=O)O)cn3C2CC2)CC1)c1ccco1,H37Rv,,,inhibition,6.25 µg/mL,45%
CC1(C)S[C@@H]2[C@@H](NC(=O)CCCC(N)C(=O)O)C(=O)N2[C@@H]1C(=O)O,H37Rv,,BACTEC,inhibition,12.8 µg/mL,1%
O=C(Cc1cccs1)N[C@@H]1C(=O)N2C(C(=O)[O-])=C(C[n+]3ccccc3)CS[C@H]12,H37Rv,,resazurin,MBC,,8 µg/mL
CC1(C)O[C@H]2OC([C@H](CCO)NCCCCCCCN[C@@H](CCO)C3O[C@@H]4OC(C)(C)O[C@@H]4[C@H]3OCc3ccccc3)[C@H](OCc3ccccc3)[C@H]2O1,H37Rv,,,MIC,,>50 µg/mL
CCN(CC)CCC(O)(c1ccccc1)C(c1ccccc1)c1cc2cc(Br)ccc2nc1OC,H37Rv,,,MIC90,,6.72 µg/mL
CO/N=C(/CN1CCN(c2cc3c(cc2F)c(=O)c(C(=O)O)cn3C2CC2)CC1)c1cccs1,H37Rv,,,inhibition,6.25 µg/mL,99%
CC(C)NC(=O)c1ccccc1-[s+]1c2ccccc2c(=O)n1C(C)C,H37Rv,,BACTEC,inhibition,6.25 µg/mL,0%
C=C(C)CC[C@H]1CN(c2ccn(N3CCOCC3)c2)C(=O)O1,ATCC 27294,,,MIC50,,>100 µM
CN[C@@H]1[C@H](O[C@H]2[C@H](O[C@H]3[C@H](O)[C@@H](O)[C@H](N=C(N)N)[C@@H](O)[C@@H]3N=C(N)N)O[C@@H](C)[C@]2(O)C=O)O[C@@H](CO)[C@H](O)[C@H]1O,9465 (streptomycin isoniazid-R),,,MIC,,40 µg/mL
C=C(C)[C@@H]1CC[C@]2(C)CCC3(C)[C@H](CC[C@@H]4[C@@]5(C)CC[C@H](O)C(C)(C)[C@@H]5CC[C@]43C)[C@@H]12,,,,MIC,,>200 µg/mL
Cc1ccc(NP2(Nc3ccc(C)cc3)=NP(Nc3ccc(C)cc3)(N3CC3)=NP(Nc3ccc(C)cc3)(N3CC3)=N2)cc1,CS-R,,,MIC,,6.4 µg/mL
CC1=CC(=O)c2c(ccc(C3=C(C)C(=O)c4cccc(O)c4C3=O)c2O)C1=O,H37Rv (S-MTB),,resazurin,MIC,,50 µg/mL
CC1(C)O[C@H]2OC([C@H](CCO)NCCCN[C@@H](CCO)C3O[C@@H]4OC(C)(C)O[C@@H]4[C@H]3OCc3ccccc3)[C@H](OCc3ccccc3)[C@H]2O1,H37Rv,,,MIC,,>50 µg/mL
NC(=O)C#CC(N)=O,H37Rv,,BACTEC,inhibition,12.5 µg/mL,100%
CCc1nc(N2CCCCC2)c2cc(C)sc2n1,Erdman,,resazurin,EC50,,49 µM
Cc1cn2c(C(=O)NCc3ccc(N4CCC(c5ccc(OC(F)(F)F)cc5)CC4)cc3)c(C)nc2s1,H37Rv,QcrB7 S182P,resazurin / fluorescence,MIC,,0.3 µM
O=C(O)c1cn(C2CC2)c2cc(N3CCN(C/C(=N/OCc4ccccc4)c4ccco4)CC3)c(F)cc2c1=O,H37Rv,,,inhibition,6.25 µg/mL,74%
CCCCCC(=O)OCCN1CCN(CCCN2c3ccccc3Sc3ccc(C(F)(F)F)cc32)CC1.Cl.Cl,H37Rv,,BACTEC,MIC bound,,>12.5 µg/mL
COc1nc2ccc(Br)cc2cc1[C@@H](c1ccccc1)[C@@](O)(CCN(C)C)c1cccc2ccccc12,Erdman,,resazurin,EC50,,<0.078 µM
CCc1cc(C(N)=S)ccn1,PETH80,,,MIC,,20 µg/mL
COc1nc2ccc(Br)cc2cc1C(c1ccccc1)C(O)(CCN1CCOCC1)c1cccc2ccccc12,H37Rv,,,MIC90,,59.76 µg/mL
NC(=S)Nc1ccccc1C(=O)O,A67,,,MIC,,500 µM
NC(=O)c1nc(-c2ccccc2)c(-c2ccccc2)[nH]c1=O,H37Rv,,BACTEC,MIC bound,,>12.5 µg/mL
CCOC(=O)C[C@H](NCCCN[C@@H](CC(=O)OCC)C1O[C@@H]2OC(C)(C)O[C@@H]2[C@H]1OCc1ccccc1)C1O[C@@H]2OC(C)(C)O[C@@H]2[C@H]1OCc1ccccc1,H37Rv,,,MIC,,25 µg/mL
CCCCC(=O)NNC(=O)c1ccncc1,H37Rv,,,MIC,,400 µg/mL
NNC(=O)c1ccncc1,H37Ra,,,MIC,,0.1 µg/mL
CCOC(=O)/C=C(\C)NC1CC(=O)NC1=O,H37Rv,,BACTEC,inhibition,12.5 µg/mL,0%
Cc1cn2c(C(=O)NCc3ccc(C(F)(F)F)cc3)c(C)nc2s1,H37Rv,,resazurin / fluorescence,MIC,,0.061 µM
C=C(C)[C@@H]1CC[C@]2(C(=O)O)CC[C@]3(C)C(CCC4[C@@]5(C)[C@@H](C(=O)O)[C@H](OC(=O)c6ccc(O)c(OC)c6)C(C)(C)[C@@H]5CC[C@]43C)C12,,,,MIC,,25 µg/mL
CO/N=C(\C(=O)N[C@@H]1C(=O)N2C(C(=O)O)=C(COC(C)=O)CS[C@H]12)c1csc(N)n1,H37Rv,,resazurin,MBC,,2 µg/mL
CC(=O)NNC(=S)N/C=C(\C#N)c1nc2ccccc2s1,H37Rv,,BACTEC,inhibition,12.5 µg/mL,84%
NC[C@H]1O[C@H](O[C@H]2[C@H](O)[C@@H](O[C@H]3O[C@H](CO)[C@@H](O)[C@H](N)[C@H]3O)[C@H](N)C[C@@H]2N)[C@H](O)[C@@H](O)[C@@H]1O,607,,,MIC,,1–2 µg/mL
NC(=S)N/N=C1/C(=O)N(c2ccc(Cl)cc2Cl)C(=O)C1C(=O)Nc1ccc(Cl)cc1Cl,H37Rv,,BACTEC,MIC,,≥12.8 µg/mL
[Cl][Co][Cl],H37Rv,,resazurin,MIC,,>105 µM
Nc1ccc(C(=O)O)c(F)c1,H37Rv,,BACTEC,MIC bound,,>12.5 µg/mL
C[C@H]1CC(=O)c2c(O)cccc2[C@H]1O,H37Rv (S-MTB),,resazurin,MIC,,>100 µg/mL
COc1ccc(CCNC2Oc3ccc([N+](=O)[O-])cc3-c3nc(C)c(C#N)cc32)cc1OC,H37Rv,,BACTEC,inhibition,12.5 µg/mL,4%
CCn1cc(C(=O)O)c(=O)c2cc(F)c(N3CCN(C/C(=N/OC)c4cccs4)CC3)cc21,H37Rv,,,MIC,,>6.25 µg/mL

Repeating the final 8 entries:

smiles	strain or isolate	changes	method	measure	dose	result
CC(=O)NNC(=S)N/C=C(\C#N)c1nc2ccccc2s1	H37Rv		BACTEC	inhibition	12.5 µg/mL	84%
NC[C@H]1O[C@H](O[C@H]2[C@H](O)[C@@H](O[C@H]3O[C@H](CO)[C@@H](O)[C@H](N)[C@H]3O)[C@H](N)C[C@@H]2N)[C@H](O)[C@@H](O)[C@@H]1O	607			MIC		1–2 µg/mL
NC(=S)N/N=C1/C(=O)N(c2ccc(Cl)cc2Cl)C(=O)C1C(=O)Nc1ccc(Cl)cc1Cl	H37Rv		BACTEC	MIC		≥12.8 µg/mL
[Cl][Co][Cl]	H37Rv		resazurin	MIC		>105 µM
Nc1ccc(C(=O)O)c(F)c1	H37Rv		BACTEC	MIC bound		>12.5 µg/mL
C[C@H]1CC(=O)c2c(O)cccc2[C@H]1O	H37Rv (S-MTB)		resazurin	MIC		>100 µg/mL
COc1ccc(CCNC2Oc3ccc([N+](=O)[O-])cc3-c3nc(C)c(C#N)cc32)cc1OC	H37Rv		BACTEC	inhibition	12.5 µg/mL	4%
CCn1cc(C(=O)O)c(=O)c2cc(F)c(N3CCN(C/C(=N/OC)c4cccs4)CC3)cc21	H37Rv			MIC		>6.25 µg/mL